Anti-infective test results gathered from many reports (values: NIAID ChemDB through PubChem).

Common to all: growth or infection tests; species: HIV-1; read by: p24 / ELISA; endpoint: inhibition

Inhibition is in % at the dose shown (toxicity tests: loss of growth or viability). Conditions beyond the fields shown may differ between rows.

Cc1c2ccnc(Cl)c2cc2c3cn(C)ccc-3nc12 ; dose: 1 µM ; cell line: PBMC ; value: 78%
COC(=O)CCCCCNC(=O)[C@]12CCC(C)(C)C[C@H]1C1=CC[C@@H]3[C@@]4(C)C[C@@H](O)[C@H](O)C(C)(C)[C@@H]4CC[C@@]3(C)[C@]1(C)CC2 ; strain or isolate: pNL4-3 ; dose: 25 µM ; cell line: MT-2 ; value: 63.2%
CN1CCn2c3c(c(O)c2C1=O)C(=O)N(Cc1ccc(F)cc1)CC3 ; strain or isolate: IIIB ; dose: 0.16 µM ; cell line: MT-4 ; value: >95%
CC1(C)CC[C@]2(C(=O)NCCCCCC(=O)NCC(=O)O)CC[C@]3(C)C(=CC[C@@H]4[C@@]5(C)C[C@@H](O)[C@H](O)C(C)(C)[C@@H]5CC[C@]43C)[C@@H]2C1 ; strain or isolate: pNL4-3 ; dose: 25 µM ; cell line: MT-2 ; value: -22.1%
CNC(=O)c1cn2c(c1O)C(=O)N(Cc1ccc(F)cc1)CC2 ; strain or isolate: IIIB ; dose: 10 µM ; cell line: MT-4 ; value: >95%
COC(=O)c1c(C(=O)OC)c(C)n(-c2ccccc2)c1C ; strain or isolate: IIIB ; dose: 10 µM ; cell line: PBL ; value: 0%
CCOC(=O)c1cn2c(c1O)C(=O)N(Cc1ccc(F)cc1)CC2 ; strain or isolate: IIIB ; dose: 3.23 µM ; cell line: MT-4 ; value: >95%
CCOC(=O)c1cc(-c2ccc(OC)cc2)n(-c2ccccc2)c1C ; strain or isolate: IIIB ; dose: 10 µM ; cell line: PBL ; value: 6%
COC(=O)[C@@H](NC(=O)[C@]12CCC(C)(C)C[C@H]1C1=CC[C@@H]3[C@@]4(C)C[C@@H](O)[C@H](O)C(C)(C)[C@@H]4CC[C@@]3(C)[C@]1(C)CC2)C(C)C ; strain or isolate: pNL4-3 ; dose: 10 µM ; cell line: MT-2 ; value: 28%
COC(=O)c1c(C(=O)OC)c2n(c1C)Cc1ccccc1C2 ; strain or isolate: IIIB ; dose: 10 µM ; cell line: PBL ; value: 4%
C[C@H](NC(=O)CCCCCNC(=O)[C@]12CCC(C)(C)C[C@H]1C1=CC[C@@H]3[C@@]4(C)C[C@@H](O)[C@H](O)C(C)(C)[C@@H]4CC[C@@]3(C)[C@]1(C)CC2)C(=O)NCC(=O)O ; strain or isolate: pNL4-3 ; dose: 25 µM ; cell line: MT-2 ; value: 10.4%
CCn1c(C)c(C(=O)NC)c(C(=O)NC)c1Cc1ccccc1 ; strain or isolate: IIIB ; dose: 10 µM ; cell line: PBL ; value: 0%
CCOC(=O)c1cn2c(c1O)C(=O)N(Cc1cccc(Cl)c1)CC2 ; strain or isolate: IIIB ; dose: 1.25 µM ; cell line: MT-4 ; value: >95%
CC(C)[C@H](NC(=O)[C@]12CCC(C)(C)C[C@H]1C1=CC[C@@H]3[C@@]4(C)C[C@@H](O)[C@H](O)C(C)(C)[C@@H]4CC[C@@]3(C)[C@]1(C)CC2)C(=O)O ; strain or isolate: pNL4-3 ; dose: 10 µM ; cell line: MT-2 ; value: -2.8%
CCn1c(C)c(C(=O)N(C)C)c(C(=O)N(C)C)c1Cc1ccccc1 ; strain or isolate: IIIB ; dose: 10 µM ; cell line: PBL ; value: 5%

The last 2 rows once more:

| smiles | strain or isolate | dose | cell line | value |
|---|---|---|---|---|
| CC(C)[C@H](NC(=O)[C@]12CCC(C)(C)C[C@H]1C1=CC[C@@H]3[C@@]4(C)C[C@@H](O)[C@H](O)C(C)(C)[C@@H]4CC[C@@]3(C)[C@]1(C)CC2)C(=O)O | pNL4-3 | 10 µM | MT-2 | -2.8% |
| CCn1c(C)c(C(=O)N(C)C)c(C(=O)N(C)C)c1Cc1ccccc1 | IIIB | 10 µM | PBL | 5% |